Anti-infective test results gathered from many reports (values: NIAID ChemDB through PubChem).

Common to all: growth or infection tests; agent: Aspergillus niger

Lines come from different laboratories, so protocols vary.

structure | endpoint | strain or isolate | read by | conditions | value
CCC(C)n1ncn(-c2ccc(N3CCN(c4ccc(OC[C@H]5CO[C@](Cn6cncn6)(c6ccc(Cl)cc6Cl)O5)cc4)CC3)cc2)c1=O | MIC | ATCC 9642 | - | - | 0.2 µg/mL
C=CCc1ccc(O)c(OC)c1 | MIC | - | agar | - | 80 µg/mL
O=C1CCC(c2ccccc2)=NN1Cc1n[nH]c(=S)n1-c1ccccc1 | MIC | - | - | - | 5 µg/mL
C/C(=N\NC(=S)Nc1cccc(Cl)c1)c1c(O)ccc2c(C)cc(=O)oc12 | MIC | - | - | - | 10 µg/mL
O=C1CCC(c2ccc(Cl)cc2)=NN1Cc1n[nH]c(=S)n1-c1ccc(Cl)cc1 | MIC | - | - | - | 4 µg/mL
O/N=C(/COc1ccc(F)cc1)c1ccccc1 | MIC | ATCC 16404 | broth dilution | 72 h | >125 µg/mL
COC(=O)[C@H](C)NC(=O)[C@H](Cc1c[nH]c2ccccc12)NC(=O)c1ccccc1-c1cnc(C)[nH]1 | MIC | - | - | - | 12.5 µg/mL
O=C1C(Cl)C2(C(=O)Nc3ccccc32)N1c1ccccc1 | MIC100 | MTCC 343 | - | - | 22 µg/mL
O=C(N/N=C/c1cc([N+](=O)[O-])ccc1O)c1ccc(I)cc1 | MIC | Strain #2 | - | - | 0.4 µg/mL
COC(=O)CNC(=O)[C@@H](NC(=O)CNC(=O)c1cc(I)ccc1-c1cnc(C)[nH]1)C(C)C | MIC | - | - | - | 25 µg/mL
Clc1cccc(Cl)c1CO/N=C1/c2ccccc2OCC1n1cncn1 | MIC | ATCC 16401 | - | - | 64 µg/mL
c1ccc(-c2n[nH]c(-c3cn(C4CCNCC4)nn3)n2)cc1 | MIC | - | agar | - | 70 µg/mL
COc1ccc(Cc2cn(Cc3ccc(O)cc3)c(=N)n2C)cc1 | MIC | ATCC 9642 | - | - | >100 µg/mL
O=C(COc1ccccc1)c1ccccc1 | MIC | ATCC 16404 | broth dilution | 48 h | >125 µg/mL
CN1CCN(c2nc(Nc3ccc(C#N)c(C(F)(F)F)c3)nc(Oc3ncnc4ccccc34)n2)CC1 | MIC | MTCC 282 | - | - | >100 µg/mL
O=C(c1ccccc1Br)n1c(-c2ccccc2[N+](=O)[O-])nc2ccccc21 | MIC | - | - | - | 30 µg/mL
CCN1CCC(n2cc(-c3nc(-c4ccccc4)n[nH]3)nn2)CC1 | MIC | - | agar | - | 60 µg/mL
O=C1CC(c2ccccc2)N(C(=O)CCl)C(c2ccccc2)C1 | MIC | - | - | - | >200 µg/mL
O=C(Nc1nc2ccccc2[nH]1)c1cn[nH]c1C(=O)c1ccccc1 | MFC | - | broth dilution | - | 10 µg/mL
COc1ccc(C2=NN(Cc3n[nH]c(=S)n3-c3ccc(Br)cc3)C(=O)CC2)cc1 | MIC | - | - | - | 12 µg/mL
COP(=O)(NC(=O)[C@@H]1CCCN1)OC[C@H]1O[C@@H](n2c(=O)[nH]c3c(N)ncnc32)[C@H](O)[C@@H]1O | MIC | JCM 5697 | - | - | 1 µg/mL
O=C1C(Cl)C2(C(=O)Nc3c(Br)cc(Br)cc32)N1c1ccccc1[N+](=O)[O-] | MIC100 | MTCC 343 | - | - | 14 µg/mL
C[C@H]1[C@H](O)[C@@H](C)/C=C/C=C/C=C/C=C/C=C/C=C/C=C/[C@H](O[C@@H]2O[C@H](C)[C@@H](O)[C@H](N)[C@@H]2O)C[C@@H]2O[C@](O)(C[C@@H](O)C[C@@H](O)CC[C@H](O)[C@@H](O)C[C@@H](O)CC(=O)O[C@H]1C)C[C@H](O)[C@H]2C(=O)O | MFC | - | broth dilution | - | 2 µM
Brc1ccc(CO/N=C2\c3ccccc3OCC2n2cncn2)cc1 | MFC | ATCC 16401 | - | - | 16 µg/mL
O=C1C(Oc2cccc(N3CC(c4nnco4)CC3=O)c2)=C(Oc2cccc(N3CC(c4nnco4)CC3=O)c2)C(=O)c2ccccc21 | MIC | VCM F-1119 | - | - | 7.8 µg/mL
O=C(c1ccc([N+](=O)[O-])cc1)n1c(-c2ccccc2Cl)nc2ccccc21 | MIC | - | - | - | 17 µg/mL
COC(=O)C1CC(=O)N(c2cccc(OC3=C(Cl)C(=O)c4ccccc4C3=O)c2)C1 | MIC | VCM F-1119 | - | - | 7.8 µg/mL
O=C(COc1cccc(Cl)c1)c1ccccc1 | MIC | ATCC 16404 | broth dilution | 48 h | >125 µg/mL
CN1CCC(n2cc(-c3nc(-c4ccccc4)n[nH]3)nn2)CC1 | MIC | - | agar | - | 50 µg/mL
CC[C@H](C)[C@H](NC(=O)[C@H](Cc1cnc[nH]1)NC(=O)COc1cc(=O)oc2ccccc12)C(=O)OC | MIC | - | - | - | 12.5 µg/mL
COc1ccc(OCC(=O)c2ccccc2)cc1 | MIC | ATCC 16404 | broth dilution | 48 h | >125 µg/mL
C[C@@H](c1ncncc1F)[C@](O)(Cn1cncn1)c1ccc(F)cc1F | MIC | - | broth dilution | - | 0.25 µg/mL
CC(C)(C)OC(=O)N1CCC(n2cc(-c3nc(-c4ccccc4)n[nH]3)nn2)CC1 | MIC | - | agar | - | >200 µg/mL
Cc1ccc(C2=NN(Cc3n[nH]c(=S)n3-c3ccc(Br)cc3)C(=O)CC2)cc1 | MIC | - | - | - | 8 µg/mL
Clc1ccc(CO/N=C2/c3ccccc3OCC2n2cnnc2)cc1 | MIC | ATCC 16401 | - | - | 16 µg/mL
Cc1ccc(C2=NN(Cc3n[nH]c(=S)n3-c3ccc(Cl)cc3)C(=O)CC2)cc1 | MIC | - | - | - | 5 µg/mL
Clc1ccc2c(c1)OCC(n1cncn1)/C2=N\OCc1ccc(Cl)c(Cl)c1 | MFC | ATCC 16401 | - | - | 64 µg/mL
O=C(O)c1ccccc1-c1nc2ccccc2n1C(=O)c1ccccc1Br | MIC | - | - | - | 15 µg/mL
O/N=C(/COc1cccc(Cl)c1)c1ccccc1 | MIC | ATCC 16404 | broth dilution | 48 h | >125 µg/mL
Cc1ccccc1N1C(=O)C(Cl)C12C(=O)Nc1ccccc12 | MIC100 | MTCC 343 | - | - | 24 µg/mL
COC(=O)[C@H](Cc1ccc(O)cc1)NC(=O)[C@@H](NC(=O)[C@H](Cc1ccccc1)NC(=O)COc1c(Br)c(=O)oc2ccccc12)C(C)C | MIC | - | - | - | 12.5 µg/mL
CCN1CCN(c2nc(Nc3ccc(C#N)c(C(F)(F)F)c3)nc(Oc3ncnc4ccccc34)n2)CC1 | MIC | MTCC 282 | - | - | >100 µg/mL
Fc1cccc(CO/N=C2\c3ccccc3OCC2n2cncn2)c1 | MIC | ATCC 16401 | - | - | 2 µg/mL
O=C(O)c1ccccc1-c1nc2ccccc2n1C(=O)c1ccc([N+](=O)[O-])cc1 | MIC | - | - | - | 16 µg/mL
CCC(=O)N1CCC(n2cc(-c3nc(-c4ccc(C)cc4)n[nH]3)nn2)CC1 | MIC | - | agar | - | >200 µg/mL
Clc1ccc(CO/N=C2\c3ccccc3OCC2n2cncn2)cc1 | MFC | ATCC 16401 | - | - | 16 µg/mL
COC(=O)[C@@H]1CCCN1C(=O)[C@H](Cc1cnc[nH]1)NC(=O)[C@H](C)NC(=O)[C@@H](NC(=O)c1cc(I)ccc1-c1cnc(C)[nH]1)[C@@H](C)O | MIC | - | - | - | 12.5 µg/mL
O=C(c1ccc([N+](=O)[O-])cc1)n1c(-c2cccc(Cl)c2)nc2ccccc21 | MIC | - | - | - | 33 µg/mL
COc1cccc(OCC(=O)c2ccccc2)c1 | MIC | ATCC 16404 | broth dilution | 72 h | >125 µg/mL
Cc1ccc(N2C(=O)C(Cl)C23C(=O)Nc2ccccc23)cc1 | MIC100 | MTCC 343 | - | - | 22 µg/mL
O=C(c1ccc([N+](=O)[O-])cc1)n1c(-c2ccc(O)cc2)nc2ccccc21 | MIC | - | - | - | 17 µg/mL
O=C1CCC(c2ccc(Br)cc2)=NN1Cc1n[nH]c(=S)n1-c1ccccc1 | MIC | - | - | - | 9 µg/mL
O=C(c1ccc([N+](=O)[O-])cc1)n1c(-c2ccccc2[N+](=O)[O-])nc2ccccc21 | MIC | - | - | - | 18 µg/mL
Cc1ccc(N2C(=O)C(Cl)C23C(=O)Nc2c(Br)cc(Br)cc23)cc1 | MIC100 | MTCC 343 | - | - | >100 µg/mL
C=CCSS(=O)C=C | MIC | - | agar | - | 100000 µg/mL
CC1CC(c2ccncc2)Nc2ccc(Br)cc21 | MIC100 | ATCC 9029 | - | - | >250 µg/mL
O=C(COc1c(Br)c(=O)oc2ccccc12)N[C@@H](Cc1cnc[nH]1)C(=O)O[C@@H](Cc1c[nH]c2ccccc12)C(=O)O | MIC | - | - | - | 12.5 µg/mL

For reference, 7 entries again:

structure,endpoint,strain or isolate,read by,conditions,value
O=C(c1ccccc1Br)n1c(-c2ccccc2[N+](=O)[O-])nc2ccccc21,MIC,-,-,-,30 µg/mL
CC1CC(c2ccncc2)Nc2ccc(Br)cc21,MIC100,ATCC 9029,-,-,>250 µg/mL
CCN1CCC(n2cc(-c3nc(-c4ccccc4)n[nH]3)nn2)CC1,MIC,-,agar,-,60 µg/mL
COc1ccc(Cc2cn(Cc3ccc(O)cc3)c(=N)n2C)cc1,MIC,ATCC 9642,-,-,>100 µg/mL
O=C(c1ccc([N+](=O)[O-])cc1)n1c(-c2ccccc2[N+](=O)[O-])nc2ccccc21,MIC,-,-,-,18 µg/mL
COC(=O)[C@H](C)NC(=O)[C@H](Cc1c[nH]c2ccccc12)NC(=O)c1ccccc1-c1cnc(C)[nH]1,MIC,-,-,-,12.5 µg/mL
O=C1CCC(c2ccccc2)=NN1Cc1n[nH]c(=S)n1-c1ccccc1,MIC,-,-,-,5 µg/mL

A number after MIC or MFC names an inhibition level or a share of isolates. Blank or dashed fields: not listed here.